Anti-infective test results gathered from many reports (values: NIAID ChemDB through PubChem).

Shared fields: growth or infection tests; species: Streptococcus pneumoniae; endpoint: MIC

Lines come from different laboratories, so protocols vary.

structure,strain or isolate,result
CC[C@H]1OC(=O)[C@H](C)C(=O)[C@H](C)[C@@H](O[C@@H]2O[C@H](C)C[C@H](N(C)C)[C@H]2O)[C@@](C)(OCCCc2cnc3ccccc3c2)C[C@@H](C)C(=O)[C@H](C)[C@H]2NC(=O)O[C@@]21C,ATCC 6303,0.03 µg/mL
CC[C@H]1OC(=O)[C@H](C)C(=O)[C@H](C)[C@@H](O[C@@H]2O[C@H](C)C[C@H](N(C)C)[C@H]2O)[C@@]2(C)C[C@@H](C)C(=NC(C)=O)[C@H](C)C(OC/C(=N\OCc3ccccc3)CO2)[C@]1(C)O,49619 (erythromycin-susceptible),<0.06 µg/mL
O=C(NCCO)NNC(=O)Nc1cc(C(F)(F)F)cc(C(F)(F)F)c1,STP51 (penicillin-resistant),>300 µM
CCC(=O)NC[C@H]1CN(c2ccc(C3CCS(=O)(=O)CC3)c(F)c2)C(=O)O1,UC9912,0.5 µg/mL
CC(=O)NC[C@H]1CN(c2ccc3c(c2)OCc2nccn2-3)C(=O)O1,SP665,0.125 µg/mL
CC[C@H]1OC(=O)[C@H](C)C(=O)[C@H](C)[C@@H](O[C@@H]2O[C@H](C)C[C@H](N(C)C)[C@H]2O)[C@@]2(C)C[C@@H](C)C(=O)[C@H](C)C(OC/C=C/CO2)[C@]1(C)O,7701 (erythromycin-resistant-MEF),0.5 µg/mL
O=C(O)NC[C@H]1CC(c2ccc(N3CCN(C(=O)CO)CC3)c(F)c2)=NO1,UC9912,1 µg/mL
O=C(NNC(=O)NC1CCCCC1)Nc1cc(C(F)(F)F)cc(C(F)(F)F)c1,STP51 (penicillin-resistant),50 µM
CCC(=O)N=C1[C@H](C)C[C@@]2(C)OC/C(=C/C=C/c3ccccc3)COC([C@H]1C)[C@](C)(O)[C@@H](CC)OC(=O)[C@H](C)C(=O)[C@H](C)[C@H]2O[C@@H]1O[C@H](C)C[C@H](N(C)C)[C@H]1O,49619 (erythromycin-susceptible),0.125 µg/mL
COC(=O)N1CC=C(c2ccc(C3=NO[C@H](CNC(=O)O)C3)cc2)CC1,UC9912,>16 µg/mL
CC[C@H]1OC(=O)[C@@](C)(F)C(=O)[C@H](C)[C@@H](O[C@@H]2O[C@H](C)C[C@H](N(C)C)[C@H]2O)[C@@]2(C)C[C@@H](C)C(=NC(C)=O)[C@H](C)[C@@H](OC/C(=N\OCc3ccc(-c4ncccn4)s3)CO2)[C@]1(C)O,700906 (erythromycin A-resistant),<0.06 µg/mL
O=C(O)NC[C@H]1CC(c2cc(F)c(N3CCN(C(=O)CO)CC3)c(F)c2)=NO1,UC9912,0.5 µg/mL
CC[C@H]1OC(=O)[C@H](C)C(=O)[C@H](C)[C@@H](O[C@@H]2O[C@H](C)C[C@H](N(C)C)[C@H]2O)[C@@]2(C)C[C@@H](C)/C(=N\C(=O)OC)[C@H](C)C(OC/C(=C\C=C\c3ccccc3)CO2)[C@]1(C)O,49619 (erythromycin-susceptible),<0.06 µg/mL
CC(=O)NC[C@H]1CN(c2ccc(-c3ccn(C(C)=O)n3)c(F)c2)C(=O)O1,UC9912,1 µg/mL
C=CC(=O)NC[C@H]1CN(c2ccc(C3CCS(=O)(=O)CC3)c(F)c2)C(=O)O1,UC9912,0.25 µg/mL
CC[C@H]1OC(=O)[C@H](C)C(=O)[C@H](C)[C@@H](O[C@@H]2O[C@H](C)C[C@H](N(C)C)[C@H]2O)[C@@]2(C)C[C@@H](C)C(=NC(C)=O)[C@H](C)C(OC/C(=C\C=C\c3cccc([N+](=O)[O-])c3)CO2)[C@]1(C)O,700906 (erythromycin-resistant-ERM),0.5 µg/mL
CC[C@H]1OC(=O)[C@H](C)[C@@H](O[C@H]2C[C@@](C)(OC)[C@@H](O)[C@H](C)O2)[C@H](C)[C@@H](O[C@H]2O[C@@H](C)C[C@@H](N(C)C)[C@@H]2O)[C@](C)(O)C[C@@H](C)C(=O)[C@H](C)[C@@H](O)[C@]1(C)O,700906 (erythromycin-resistant-ERM),>64 µg/mL
CC(=O)NC[C@H]1CN(c2ccc(-c3csc(C)c3)c(F)c2)C(=O)O1,UC9912,0.5 µg/mL
CC[C@H]1OC(=O)[C@H](C)C(=O)[C@H](C)[C@@H](O[C@@H]2O[C@H](C)C[C@H](N(C)C)[C@H]2O)[C@@]2(C)C[C@@H](C)C(=NC(=O)CN)[C@H](C)C(OC/C(=C\C=C\c3ccccc3)CO2)[C@]1(C)O,49619 (erythromycin-susceptible),<0.06 µg/mL
COc1c(N2C[C@@H]3CCCN[C@@H]3C2)ccc2c(=O)c(C(=O)O)cn(C3CC3)c12,D-1687,8 µg/mL
O=C(Nc1cccc(C2=NCCN2)c1)Nc1cccc(C2=NCCN2)c1,STP6301,99 µM
C=CCn1cc(-c2ccc(N3C[C@H](CNC(C)=O)OC3=O)cc2F)cn1,UC9912,0.5 µg/mL
O=C(CCC(=O)Nc1cc(C(F)(F)F)cc(C(F)(F)F)c1)Nc1cc(C(F)(F)F)cc(C(F)(F)F)c1,STP51 (penicillin-resistant),>300 µM
COC(=O)n1ccc(-c2ccc(N3C[C@H](CNC(C)=O)OC3=O)cc2F)n1,UC9912,1 µg/mL
NC1CCN(c2nc3c(cc2F)c(=O)c(C(=O)O)cn3-c2ccc(F)cc2F)C1,J24 (quinolone- penicillin-sensitive),0.05 µg/mL
CC[C@H]1OC(=O)[C@H](C)C(=O)[C@H](C)[C@@H](O[C@@H]2O[C@H](C)C[C@H](N(C)C)[C@H]2O)[C@@]2(C)C[C@@H](C)C(=NC(C)=O)[C@H](C)[C@@H](OC/C(=N\OCC#Cc3cncnc3)CO2)[C@]1(C)O,49619 (erythromycin-susceptible),<0.06 µg/mL
N[C@@H]1CN(c2c(F)cc3c(=O)c(C(=O)O)cn([C@@H]4C[C@@H]4F)c3c2Cl)CC12CC2,J24 (quinolone- penicillin-sensitive),0.05 µg/mL
CC[C@H]1OC(=O)[C@H](C)C(=O)[C@H](C)[C@@H](O[C@@H]2O[C@H](C)C[C@H](N(C)C)[C@H]2O)[C@@]2(C)C[C@@H](C)C(=NC(C)=O)[C@H](C)[C@@H](OC/C(=N\OCc3ccc(C(N)=O)s3)CO2)[C@]1(C)O,700906 (erythromycin A-resistant),0.25 µg/mL
COc1c(N2CCNC(C)C2)ccc2c(=O)c(C(=O)O)cn(C3CC3)c12,R6,4 µg/mL
O=C(NNC(=O)Nc1ccc(Cl)c(Cl)c1)Nc1ccc(Cl)c(Cl)c1,STP6301,1.7 µM
CC(=O)NC[C@H]1CN(c2ccc(-c3cnc(C(C)=O)s3)c(F)c2)C(=O)O1,UC9912,≤0.125 µg/mL
CC[C@H]1OC(=O)[C@@](C)(F)C(=O)[C@H](C)[C@@H](O[C@@H]2O[C@H](C)C[C@H](N(C)C)[C@H]2O)[C@@]2(C)C[C@@H](C)C(=NC(C)=O)[C@H](C)[C@@H](OC/C(=N\OCc3ccc(-c4csnn4)nc3)CO2)[C@]1(C)O,7701 (erythromycin A-resistant),<0.06 µg/mL
CC[C@H]1OC(=O)[C@H](C)C(=O)[C@H](C)[C@@H](O[C@@H]2O[C@H](C)C[C@H](N(C)C)[C@H]2O)[C@@]2(C)C[C@@H](C)C(=NC(C)=O)[C@H](C)C(OC/C(=N/OCc3ccccc3)CO2)[C@]1(C)O,7701 (erythromycin-resistant-MEF),1 µg/mL

A second listing of 4 rows from above:

{"structure": "CCC(=O)N=C1[C@H](C)C[C@@]2(C)OC/C(=C/C=C/c3ccccc3)COC([C@H]1C)[C@](C)(O)[C@@H](CC)OC(=O)[C@H](C)C(=O)[C@H](C)[C@H]2O[C@@H]1O[C@H](C)C[C@H](N(C)C)[C@H]1O", "strain or isolate": "49619 (erythromycin-susceptible)", "result": "0.125 µg/mL"}
{"structure": "COC(=O)N1CC=C(c2ccc(C3=NO[C@H](CNC(=O)O)C3)cc2)CC1", "strain or isolate": "UC9912", "result": ">16 µg/mL"}
{"structure": "CC(=O)NC[C@H]1CN(c2ccc(-c3cnc(C(C)=O)s3)c(F)c2)C(=O)O1", "strain or isolate": "UC9912", "result": "≤0.125 µg/mL"}
{"structure": "C=CC(=O)NC[C@H]1CN(c2ccc(C3CCS(=O)(=O)CC3)c(F)c2)C(=O)O1", "strain or isolate": "UC9912", "result": "0.25 µg/mL"}